In paper PMC11339798, “Dual inhibitors of Pseudomonas aeruginosa virulence factors LecA and LasB” (Chemical Science, 2024):
≈ marks a conversion by molar mass, not a printed value.

Sequences of proteins named here, by UniProt entry; tags and fusion partners are left off.
UniProt Q05097, whole entry: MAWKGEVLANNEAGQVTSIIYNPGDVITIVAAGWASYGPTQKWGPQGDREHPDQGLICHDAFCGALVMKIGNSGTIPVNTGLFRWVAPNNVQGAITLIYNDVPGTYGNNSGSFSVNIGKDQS

Columns and labels:
[1] = molecular target: T1, LecA (Pseudomonas aeruginosa, UniProt Q05097); assay: Competitive binding assay for LecA based on fluorescence polarization; parameters: species or system P. aeruginosa; settings: read-out: IC50 (LecA)
Description: The four thiols 17, 18, 24 and 25 as well as three disulfides 26a, 26b and 27 were then evaluated for their activity against LecA using a competitive binding assay based on fluorescence polarization (Fig. 4B). […]
Expression and purification of LasB and LecA
LecA was expressed recombinantly using E. coli pET25-pail, whereas LasB was isolated from P. aeruginosa PA14 culture supernatant as described previously. 1,2
LecA labeling with fluorescein was performed in analogy to Sommer et al. 3 and Beshr et al.4 To this end fluorescein isothiocyanate (FITC) was freshly dissolved in carbonate-bicarbonate buffer with pH of 9.3 at a concentration of 3 mg mL-1. Subsequently, 66 µL of this FITC solution was combined with 1.4 mL of LecA at a concentration of 60 µM in carbonate-bicarbonate buffer, pH 9.3. The resulting mixture was then incubated at 25 °C with shaking at 500 rpm for 1 hour. […]
The procedure for the fluorescence polarization-based competitive binding assay for LecA was performed as reported by Joachim et al. with modifications. […] Fluorescence intensities were recorded on a PheraStar FS plate reader (BMG Labtech GmbH, Germany) and polarization was calculated using MARS Data Analysis (BMG Labtech).
IC50 values were obtained from a four-parameter curve-fitting procedure. Averages and standard deviations were calculated from at least three independent experiments of technical

[2] = molecular target: T1, LecA; assay: Surface plasmon resonance direct LecA binding assay (immobilized LecA); parameters: species or system P. aeruginosa; settings: SPR; for Kd: kinetic fit
Source text: Therefore, we measured the LecA affinity of thiol derivatives 17, 18, 24 and 25 and disulfides 26a, 26b and 27 using surface plasmon resonance (SPR) with LecA covalently immobilized on a sensor chip via amide coupling (Fig. 5 and Table 1). […] Thiols 17, 18, 24 and 25 reached equilibrium binding within 60 s of interaction with immobilized LecA, followed by their dissociation with moderate off-rates. […] Due to the very small off-rates for 26a, 26b and 27, these values have been calculated based on the response at […] of the injected compound and monitoring their dissociation for 30 min (Fig. S2 ^†). The observed very tight binding to immobilized LecA required optimization of the protein surface regeneration procedure. Effective conditions were identified as one injection of 50 mm isopropyl β-D-thiogalactoside in the running buffer, followed by one injection of 20 mm EDTA disodium salt in water. The regenerated chip surface was controlled using an injection of 1 to ensure that the activity of LecA was maintained.
Surface plasmon resonance direct LecA binding assay
SPR experiments were performed on a Reichert 2-channel SPR SR7500DC (Reichert Technologies Life Sciences, Buffalo, NY, USA) at 25 °C. For LecA immobilization, the surface of a HC1000M sensor chip (XanTec bioanalytics GmbH, Düsseldorf, Germany) was preequilibrated with borate buffer (1 M NaCl, 0.1 M sodium borate pH 9.0), followed by activation of the polycarboxylate hydrogel with 0.2 M N-hydroxysuccinimide (NHS) and 0.4 M 1-ethyl-3-(3-dimethylaminopropyl)carbodiimide hydrochloride (EDC‧HCl) in MilliQ water in both channels for 240 s (flow rate 10 μL/min) until the binding response reached 1200 RU.
Then, LecA (100 μg/mL) in 10 mM sodium acetate pH 3.6 was injected on the activated chip surface of one channel (injection time 420 s, flow rate 10 μL/min) and 6000 RU of LecA were immobilized. Unreacted NHS esters in both channels were blocked with 1 M ethanolamine hydrochloride in MilliQ water pH 8.5 (injection time 360 s, flow rate 10 μL/min).
Test compound stock solutions were prepared in DMSO (20 mM stocks for monovalent LecA inhibitors, 20 µM stocks for divalent LecA inhibitors) and were subsequently diluted in 10 mM phosphate buffer (pH 7.4, 2.7 mM KCl, 137 mM NaCl, 100 μM CaCl2) to obtain solutions with […]
Monovalent inhibitors 17, 18, 24 and 25 were injected for 120 s (flow rate 50 μL/min) at concentrations ranging from 0.39–100 µM. Divalent inhibitors 26a, 26b and 27 were injected for 120 s (flow rate 50 μL/min) at concentrations 50–350 nM. The chip surface was regenerated after each inhibitor injection by one injection of 50 mM IPTG in running buffer (10 mM phosphate buffer, pH 7.4, 2.7 mM KCl, 137 mM NaCl, 100 μM CaCl2, 2% DMSO) followed by one injection 20 mM EDTA disodium salt in MilliQ water, and then followed by three injections of the running buffer (injection time 120 s, flow rate 50 μL/min). 100 µM pNP-Gal (1) in running buffer was injected before each analyte to monitor and ensure chip regeneration and […]
Affinity/equilibrium analysis was performed for 1 on the same chip. A stock solution of 1 (10 mM in PBS/CaCl2 buffer) was prepared, then diluted to the required concentrations in running buffer and injected at 1.56–400 µM (injection time 60 s, flow rate 50 μL/min) without regeneration steps. Data analysis was performed using TraceDrawer software (Ridgeview Instruments) using a 1:1 binding model to fit the experimental data. Spikes at the end of the injections were removed in TraceDrawer during the data analysis.

[3] = Kinetic solubility; assay type: physicochemical; settings: 10 mm PBS with 2% DMSO at 37 °C

Compound	IC50 [1]	k a [2]	k d [2]	Kd [2]	kinetic solubility [3]
O=C(Nc1ccc(S[C@@H]2O[C@H](CO)[C@H](O)[C@H](O)[C@H]2O)cc1)C(Cc1ccccc1)SSC(Cc1ccccc1)C(=O)Nc1ccc(S[C@@H]2O[C@H](CO)[C@H](O)[C@H](O)[C@H]2O)cc1 (single isomer, unassigned) [26b]	3000 nM	4.6 ± 0.7 ×10^4 M^−1 s^−1	3.0 ± 1.2 ×10^−4 s^−1	6.6 nM	300 µM (≈ 270 µg/mL)
O=C(Nc1ccc(S[C@@H]2O[C@H](CO)[C@H](O)[C@H](O)[C@H]2O)cc1)C(Cc1ccccc1)SSC(Cc1ccccc1)C(=O)Nc1ccc(S[C@@H]2O[C@H](CO)[C@H](O)[C@H](O)[C@H]2O)cc1 (single isomer, unassigned) [26a]	4700 nM	3.8 ± 0.8 ×10^4 M^−1 s^−1	2.8 ± 0.3 ×10^−4 s^−1	7.4 nM	300 µM (≈ 270 µg/mL)
